Results deposited as PubChem BioAssay AID624099 (ICCB-Longwood, 2012)

Purpose: 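Knock-downs relieving repression by E2 of an HPV18 LCR luciferase reporter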 (primary screen)
Cells: human C33A cervical carcinoma cells (HPV-negative) stably expressing BPV1 E2 and an HPV18 LCR luciferase reporter
Knock-down reagent: siRNA pool against human genes, 40 nM
Time to read-out: 72 h
Measurement: 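HPV18 LCR reporter light per well, converted to plate-wise z-scores that exclude control wells, and averaged over triplicate plates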
Reading the numbers: mean z-score and z-score: higher = stronger reporter signal, weaker E2 silencing
Call rule: 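Hit if mean z-score reaches 2 and two or more of three replicate z-scores also reach 2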
This is an unselected part of about 21,000 reagents tested. Over the whole deposit, 497 (2.4%) were called active. 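Higher z means weaker E2 silencing; only reporter increases were scored, and knock-downs that hurt cell survival may mask genuine repressor factors.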 Reagents against one gene are numbered here. No sequences are given here.

What did the screen give for ERICH1?
mean z-score: 0.55; z-score, replicate A: 0.78; z-score, replicate B: 0.5; z-score, replicate C: 0.36; Call: inactive

For FOXH1, how do the results read?
mean z-score: 0.29; z-score, replicate A: 0.1; z-score, replicate B: 0.29; z-score, replicate C: 0.47; Call: inactive

What is on record for SPANXB1 #1?
mean z-score: 0.85; z-score, replicate A: 1.02; z-score, replicate B: 0.89; z-score, replicate C: 0.64; Call: inactive

With SPANXB1 #2, how do the results read?
mean z-score: 0.98; z-score, replicate A: 0.86; z-score, replicate B: 1.09; z-score, replicate C: 0.98; Call: inactive

2 entries already listed, arranged by “mean z-score”, low to high:
SPANXB1 #1 | mean z-score = 0.85; z-score, replicate A = 1.02; z-score, replicate B = 0.89; z-score, replicate C = 0.64; Call = inactive
SPANXB1 #2 | mean z-score = 0.98; z-score, replicate A = 0.86; z-score, replicate B = 1.09; z-score, replicate C = 0.98; Call = inactive

Continued.
With RPL23AP32, what does the deposit list?
mean z-score: -1.09; z-score, replicate A: -0.98; z-score, replicate B: -0.95; z-score, replicate C: -1.34; Call: inactive

For CLMP, what does the deposit list?
mean z-score: -0.79; z-score, replicate A: -1.27; z-score, replicate B: -0.6; z-score, replicate C: -0.49; Call: inactive

For AGO3, how do the results read?
mean z-score: -0.98; z-score, replicate A: -1.55; z-score, replicate B: -0.8; z-score, replicate C: -0.6; Call: inactive

Which result is listed for ACADSB?
mean z-score: 0.27; z-score, replicate A: 0.66; z-score, replicate B: 0.15; z-score, replicate C: 0.02; Call: inactive

Which result is listed for SDC3?
mean z-score: -0.19; z-score, replicate A: -0.43; z-score, replicate B: -0.09; z-score, replicate C: -0.04; Call: inactive

With ORM1, what does the deposit list?
mean z-score: -0.17; z-score, replicate A: -0.14; z-score, replicate B: -0.28; z-score, replicate C: -0.09; Call: inactive

For SEC61G, what does the deposit list?
mean z-score: -0.89; z-score, replicate A: -1.3; z-score, replicate B: -0.89; z-score, replicate C: -0.49; Call: inactive

With MMP7, how do the results read?
mean z-score: 0.89; z-score, replicate A: 0.95; z-score, replicate B: 0.64; z-score, replicate C: 1.06; Call: inactive

With RIMS3, what was measured?
mean z-score: -1.63; z-score, replicate A: -1.71; z-score, replicate B: -1.73; z-score, replicate C: -1.44; Call: inactive

With SLC9C1, what was measured?
mean z-score: -0.1; z-score, replicate A: -0.42; z-score, replicate B: 0.14; z-score, replicate C: -0.02; Call: inactive
